Measured values from several laboratories, pooled; numbers as filed in NIAID ChemDB.

All rows: tests in culture; organism: HIV-1; method: RT activity; measure: EC50

Rows are shuffled and stem from different studies. An empty or dashed field is not shown. ECn is the concentration giving n% inhibition of infection, replication or growth.

smiles,mutations,strain,cells,value
O=c1[nH]cnc2c1ncn2[C@H]1O[C@@H](CO)[C@H](O)C1(F)F,,LAI,PBMC,>100 µM
C=C(C)[C@@H]1CC[C@]2(NC(=O)NC(=O)OC)CC[C@]3(C)[C@H](CC[C@@H]4[C@@]5(C)CC[C@H](OC(=O)CC(C)(C)C(=O)O)C(C)(C)[C@@H]5CC[C@]43C)[C@@H]12,,IIIB,MT-2,>0.199 µM
COCC1OC(=O)C12N(C)C(=O)C(C)C2(O)C(CC(C)C(O)/C=C/C=C/CNC(=O)C(C)(C)C(O)\C(C)=C/C=C\C=C\Cc1cnc(C)o1)OC,,,U-937,<10 µg/mL
Nc1ccn([C@@H]2S[C@H](CO)C=C2F)c(=O)n1,,RT-M184V,PBMC,<125 µM
Nc1nc(=O)n([C@H]2C=C[C@@H](CO)O2)cc1F,RT-M184V,BRU,PBMC,<0.08 µM
S=C(NCCN1CCNCC1)Nc1ccc(Br)cn1,,IIIB,MT-4,>100 µM
CC(CO)n1cnc2c(Cl)nc(N)nc21,,LAV-1,MT-4,>100 µM
COc1cc2c(cc1Cc1cccc(Cl)c1F)c(=O)c(C(=O)O)cn2[C@H](CO)C(C)C,Wild type,NL4-3,PM1,0.0012 µM
COCCNC(=O)[C@@H](NC(=O)[C@H](Cc1ccc(OC)c(OC)c1OC)C[C@H](O)[C@H](Cc1ccccc1)NC(=O)OC(C)(C)C)C(C)C,,MN,MT-2,<0.03 µM
Cc1ccc(C(=O)N2CCN(C(=O)C(=O)c3c[nH]c4ccccc34)CC2)cc1,,BRU,MT-2,<10 µM
C=C(C)[C@@H]1CC[C@]2(NS(C)(=O)=O)CC[C@]3(C)[C@H](CC[C@@H]4[C@@]5(C)CC[C@H](OC(=O)CC(C)(C)C(=O)O)C(C)(C)[C@@H]5CC[C@]43C)[C@@H]12,,IIIB,MT-2,>0.199 µM
COc1ccc(C[C@H](C[C@H](O)[C@H](Cc2ccccc2)NC(=O)OC(C)(C)C)C(=O)N[C@H](C(=O)NCCN(C)C)C(C)C)cc1OC,,MN,MT-2,<1 µM
CC(CO)n1cnc2c(Cl)ncnc21,,LAV-1,MT-2,>100 µM
O=C(C(=O)N1CCN(C(=O)c2ccccc2)CC1)c1c[nH]c2cc(F)ccc12,,BRU,MT-2,<10 µM
CN1CCN(CCSc2nc(-c3ccc4ccccc4c3)c3ccccc3n2)CC1,,LAV,PBMC,2.6 µM
COCCNC(=O)[C@@H](NC(=O)[C@H](Cc1ccccc1)C[C@H](O)[C@H](Cc1ccccc1)NC(=O)OC(C)(C)C)C(C)C,,MN,MT-2,<0.1 µM
O=C(O)C[C@H](O)[C@@H](NC(=O)Oc1ccccc1)C(F)(F)F,,LAI,CEM + CEM-SS,>100 µg/mL
Nc1nc(=O)n([C@@H]2O[C@@H](CO)[C@H](O)C2(F)F)cc1F,,LAI,PBMC,>100 µM
Nc1nc2c(ncn2[C@@H]2O[C@H](COS(N)(=O)=O)[C@@H](O)[C@H]2O)c(=O)o1,,IIIB,H9,>30 µg/mL
CC(=O)N[C@]12CC[C@@H](C(C)C)[C@@H]1[C@H]1CC[C@@H]3[C@@]4(C)CC[C@H](OC(=O)CC(C)(C)C(=O)O)C(C)(C)[C@@H]4CC[C@@]3(C)[C@]1(C)CC2,,IIIB,MT-2,>0.199 µM
Nc1nc(Cl)c2ncn(CCCO)c2n1,,LAV-1,MT-2,>100 µM
O=c1[nH]c(=O)n([C@@H]2C[C@@H](F)[C@H](CO)O2)cc1Cl,,LAV,PBM,>100 µM
O=c1ccn([C@H]2C=C[C@@H](CO)O2)c(=O)n1CCCCCCN1CCN(CCNC(=S)Nc2ccc(Br)cn2)CC1,,IIIB,PBMC,88 µM
COc1cc(-c2ccc(N=Nc3ccc4c(S(=O)(=O)O)cc(S(=O)(=O)O)c(N)c4c3O)c(OC)c2)ccc1N=Nc1ccc2c(S(=O)(=O)O)cc(S(=O)(=O)O)c(N)c2c1O,,RF,CEM + CEM-SS,1.7 µM
CC(C)[C@H](NC(=O)[C@H](Cc1ccccc1)C[C@H](O)[C@H](Cc1ccccc1)NC(=O)OC(C)(C)C)C(=O)N[C@@H](Cc1ccccc1)C(=O)N1CCOCC1,,MN,MT-2,<0.03 µM
C=C(C)[C@@H]1CC[C@]2(NC(=O)NC(C)(C)C)CC[C@]3(C)[C@H](CC[C@@H]4[C@@]5(C)CC[C@H](OC(=O)CC(C)(C)C(=O)O)C(C)(C)[C@@H]5CC[C@]43C)[C@@H]12,,IIIB,MT-2,>0.199 µM
O=c1[nH]c(=O)n([C@@H]2O[C@@H](CO)[C@H](O)C2(F)F)cc1I,,LAI,PBMC,>100 µM
CC(C)CC(=O)N[C@H](C(=O)N[C@H](C(=O)N[C@H]([C@@H](O)CC(=O)N[C@@H](C)C(=O)N[C@H]([C@@H](O)CC(=O)O)C(F)(F)F)C(F)(F)F)C(C)C)C(C)C,,IIIB,MT-4,>10 µg/mL
O=c1ccn([C@H]2C=C[C@@H](CO)O2)c(=O)n1CC#CCN1CCN(CCNC(=S)Nc2ccc(Br)cn2)CC1,,IIIB,MT-4,>100 µM
C=C(C)[C@@H]1CC[C@]2(NC(=O)Cc3ccccc3)CC[C@]3(C)[C@H](CC[C@@H]4[C@@]5(C)CC[C@H](OC(=O)CC(C)(C)C(=O)O)C(C)(C)[C@@H]5CC[C@]43C)[C@@H]12,,IIIB,MT-2,>0.199 µM
CC(O)Cn1cnc2c(Cl)nc(N)nc21,,LAV-1,MT-2,>100 µM
COCCNC(=O)[C@@H](NC(=O)[C@H](Cc1ccc(O)cc1)C[C@H](O)[C@H](Cc1ccccc1)NC(=O)OC(C)(C)C)C(C)C,,MN,MT-2,<0.3 µM
CN1CCN(CCSc2nnc(-c3cc4ccccc4s3)c3ccccc23)CC1,,LAV,PBMC,17.2 µM
O=C(O)[C@H]1O[C@@H](Oc2ccc(/C=C/c3cc(O)cc(O)c3)cc2)[C@H](O)[C@@H](O)[C@@H]1O,,IIIB,PBMC,>300 µM
O=C(O)CN(CCCN(CCN(CC(=O)O)CC(=O)O)Cc1cnc2c(O)cccc2c1)CC(=O)O,,B-92US026 Primary isolate,PBMC,30 µM
CN(CCCN)CCCNc1nc(-c2cccs2)cc(-c2cccs2)n1,,LAV,PBMC,67.7 µM
CCc1c(C)[nH]c(=O)c(N)c1Sc1cc(C)cc(C)c1,,LAI,CEM + CEM-SS,0.014 µM
CN1CCN(CCSc2nnc(-c3ccc4ccccc4c3)c3ccccc23)CC1,,LAV,PBMC,12.2 µM
CC(=O)Oc1ccc(C(=O)N2CCN(C(=O)C(=O)c3c[nH]c4ccccc34)CC2)cc1,,BRU,MT-2,<10 µM
C=C(C)[C@@H]1CC[C@]2(NC(=O)C(C)C)CC[C@]3(C)[C@H](CC[C@@H]4[C@@]5(C)CC[C@H](OC(=O)CC(C)(C)C(=O)O)C(C)(C)[C@@H]5CC[C@]43C)[C@@H]12,,IIIB,MT-2,>0.199 µM
O=C(C(=O)N1CCN(C(=O)c2ccccc2)CC1)c1c[nH]c2cccc([N+](=O)[O-])c12,,BRU,MT-2,<10 µM
Cc1cn([C@H]2CC[C@](CO)(N=[N+]=[N-])O2)c(=O)[nH]c1=O,,LAV,A3.01,>200 µM
COC(=O)[C@H](C)NP(=O)(OC[C@@H]1C=C[C@H](n2cc(C)c(=O)[nH]c2=O)O1)Oc1ccc(OC)cc1,,IIIB,CEM + CEM TK-,0.32 µM
COC(=O)C[C@H](O)[C@@H](N)C(F)(F)F,,IIIB,MT-4,>100 µg/mL
CN(C)CCSc1ccc(-c2ccc(-c3ccc(SCCN(C)C)cc3)nn2)cc1,,LAV,PBMC,5.8 µM
O=C(C(=O)N1CCN(C(=O)c2ccccc2)CC1)c1c[nH]c2cccc(Cl)c12,,BRU,MT-2,<10 µM
[N-]=[N+]=N[C@@H]1C[C@@H](n2cc(F)c(N)nc2=O)O[C@H]1CO,,LAV,CEM,0.29 µM
COc1ccc(C[C@H](C[C@H](O)[C@H](Cc2ccccc2)NC(=O)OC(C)(C)C)C(=O)N[C@H](C(=O)N[C@@H](Cc2ccccc2)C(=O)N2CCOCC2)C(C)C)cc1,,MN,MT-2,<0.03 µM
Nc1nc2c(ncn2[C@H]2CC[C@@H](CO)O2)c(=O)o1,,IIIB,U-937/HIV-1(IIIB) + U-937,>100 µg/mL
CN(C)CCSc1cccc(-c2cc(-c3cccs3)nc(SCCN(C)C)n2)c1,,LAV,PBMC,0.8 µM
CC(O)Cn1cnc2cnc(N)nc21,,LAV-1,MT-2,>100 µM
Nc1ncnc2c1ncn2[C@H]1C[C@@H](CO)C=C1F,RT-M184V,,PBMC,75.3 µM
COC(=O)[C@H](C)NP(=O)(OC[C@@H]1C=C[C@H](n2cc(C)c(=O)[nH]c2=O)O1)Oc1ccc(Br)cc1,,IIIB,CEM + CEM TK-,0.057 µM
COC(=O)C[C@H](O)[C@@H](NC(=O)[C@H](C)NC(=O)C[C@H](O)[C@@H](N)C(F)(F)F)C(F)(F)F,,IIIB,MT-4,>100 µg/mL
Nc1c(-c2nccc(=O)[nH]2)ncn1[C@@H]1O[C@H](CO)[C@@H](O)[C@H]1O,,LAV-1,MT-2,>1500 µM
O=P(O)(O)OP(=O)(O)OP(=O)(O)OP(=O)(O)OP(=O)(O)OP(=O)(O)OP(=O)(O)OP(=O)(O)OP(=O)(O)OP(=O)(O)OP(=O)(O)OP(=O)(O)OP(=O)(O)OP(=O)(O)OP(=O)(O)O,,IIIB,H9,>100 µg/mL
Nc1nc(NC2CC2)c2ncn([C@H]3CO[C@@H](CO)O3)c2n1,,IIIB Laboratory strain,U-937,0.63 µM
Nc1nc2c(ncn2[C@H]2C=C[C@@H](CO)O2)c(=O)o1,,IIIB,U-937/HIV-1(IIIB) + U-937,13 µg/mL
NC(=O)c1cn([C@H]2CS[C@H](CO)O2)cn1,,LAV,PBMC,>100 µM
NC(=O)NO,,,H9,<200 µM
C[C@@H]1CCO[C@H]2Cn3cc(C(=O)NCc4ccc(F)cc4F)c(=O)c(O)c3C(=O)N12,G118R,NL4-3,CBMC,0.0077 µM
Cc1cn([C@H]2C[C@H](N=[N+]=[N-])[C@@H](CO)O2)c(=O)[nH]c1=O,,MDR 769,PBMC,>1000 µM
CN1N=C(N)c2cn([C@@H]3O[C@H](COP(=O)(O)O)[C@@H](O)[C@H]3O)c3ncnc1c23,,IIIB,PBL,3 µM
CN1CCN(c2nc(-c3cccs3)cc(-c3cccs3)n2)CC1,,LAV,PBMC,21.1 µM
CC(=O)OC1C(OC(C)=O)[C@H](n2cnc3c2ncn2c(CCl)cc(=O)nc32)O[C@@H]1OC(C)=O,,LAV-1,MT-2,>200 µM
Nc1ncnc2c1ncn2[C@@H]1C[C@@H](F)[C@H](CO)O1,,LAV,PBM,>100 µM
CC(CO)n1cnc2c(N)ncnc21,,LAV-1,MT-2,>100 µM
CC(C)[C@H](NC(=O)[C@H](Cc1ccccc1)C[C@H](O)[C@H](Cc1ccccc1)NC(=O)OC(C)(C)C)C(=O)N[C@@H](Cc1ccccc1)C(=O)N1CCOCC1,,pLAI,MT-2,0.02 µM
COCCNC(=O)[C@@H](NC(=O)[C@H](Cc1ccccc1OC)C[C@H](O)[C@H](Cc1ccccc1)NC(=O)OC(C)(C)C)C(C)C,,MN,MT-2,<1 µM
Cc1ccc(NC(=O)CN2CCN(Cc3nc(-c4ccc(F)cc4)no3)CC2)cc1,,92BR030,PBMC,7.5 µM
CCCc1cc(=O)oc2c3c(c4c(c12)OC(C)(C)CC4)O[C@@H](C)[C@H](C)[C@@H]3O,,CLADE E,PBMC,0.5 µM
CCc1c(C)[nH]c(=O)c2c1Sc1ccccc1C(C#N)N2,,LAI,CEM + CEM-SS,0.002 µM
Cn1cc(C(=O)O)c(=O)c2cc(N)c(N3CCN(c4ccccn4)CC3)cc21,,IIIB,H9(HIV-1(IIIB)) + H9,0.85 µM
Cc1cn([C@H]2C=C[C@@H](CO)O2)c(=O)n(CCOCCN2CCN(CCNC(=S)Nc3ccc(Br)cn3)CC2)c1=O,,IIIB,CEM + CEM-SS,67 µM
COc1ccc(C[C@H](C[C@H](O)[C@H](Cc2ccccc2)NC(=O)OC(C)(C)C)C(=O)N[C@H](C(=O)N[C@@H](Cc2ccccc2)C(=O)N2CCOCC2)C(C)C)c(OC)c1,,MN,MT-2,<0.03 µM
O=c1cc(CCl)nc2c3ncn([C@H]4C[C@H](O)[C@@H](COP(=O)(O)O)O4)c3ncn12,,LAV-1,MT-2,>200 µM

For reference, 6 entries again:

smiles	mutations	strain	cells	value
CC(=O)N[C@]12CC[C@@H](C(C)C)[C@@H]1[C@H]1CC[C@@H]3[C@@]4(C)CC[C@H](OC(=O)CC(C)(C)C(=O)O)C(C)(C)[C@@H]4CC[C@@]3(C)[C@]1(C)CC2		IIIB	MT-2	>0.199 µM
COc1ccc(C[C@H](C[C@H](O)[C@H](Cc2ccccc2)NC(=O)OC(C)(C)C)C(=O)N[C@H](C(=O)N[C@@H](Cc2ccccc2)C(=O)N2CCOCC2)C(C)C)c(OC)c1		MN	MT-2	<0.03 µM
O=c1[nH]c(=O)n([C@@H]2O[C@@H](CO)[C@H](O)C2(F)F)cc1I		LAI	PBMC	>100 µM
CN(C)CCSc1cccc(-c2cc(-c3cccs3)nc(SCCN(C)C)n2)c1		LAV	PBMC	0.8 µM
COCC1OC(=O)C12N(C)C(=O)C(C)C2(O)C(CC(C)C(O)/C=C/C=C/CNC(=O)C(C)(C)C(O)\C(C)=C/C=C\C=C\Cc1cnc(C)o1)OC			U-937	<10 µg/mL
Cc1cn([C@H]2C[C@H](N=[N+]=[N-])[C@@H](CO)O2)c(=O)[nH]c1=O		MDR 769	PBMC	>1000 µM